Results as given in ChEMBL document CHEMBL1155193, “Acyloxymethyl esterification of nodularin-R and microcystin-LA produces inactive protoxins that become reactivated and produce apoptosis inside intact cells” (J Med Chem, 2009).

System: Hepatocyte
Assay: Cytotoxicity against Wistar rat hepatocytes harboring transporter Oatp1b2 after 90 mins by differential interference contrast microscopy

`C=C1C(=O)N[C@H](C)C(=O)N[C@@H](CC(C)C)C(=O)N[C@@H](C(=O)O)[C@H](C)C(=O)N[C@@H](CCCNC(=N)N)C(=O)N[C@@H](/C=C/C(C)=C/[C@H](C)[C@H](Cc2ccccc2)OC)[C@H](C)C(=O)N[C@@H](C(=O)O)CCC(=O)N1C` [MICROCYSTIN-LR] was tested. Which CC50 did it give?
The CC50 was 270 nM.

Which CC50 does the source give for `C/C=C1/C(=O)N[C@@H](C(=O)O)[C@H](C)C(=O)N[C@@H](CCCNC(=N)N)C(=O)N[C@@H](/C=C/C(C)=C/[C@H](C)[C@H](Cc2ccccc2)OC)[C@H](C)C(=O)N[C@@H](C(=O)O)CCC(=O)N1C` [NODULARIN] here?
Its CC50 is 90 nM.
